## Sequence variants of PSTVd loop 15 after infection

PSTVd intermediate strain, loop 15: wild type GGAAACCGCUACUAC, pool pattern GGAAACCGNNNNNNC; upper and lower strand joined, each 5' to 3', the first 7 letters being the upper strand, closing pairs included.

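A pool of all variants was put on leaves of three Nicotiana benthamiana plants. Samples came from the inoculated region at 5 days, the leaf margin at 10 and upper systemic leaves at 12.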

Values are reads per thousand in the sample; higher means more abundant, 0 means not found.
Each value is the mean of three plants.
"Pool" is the share in the plasmid pool used as inoculum, on the same scale.
The inoculated region was read from the minus strand, the other sites from the plus strand.

sequence,pool,inoculated region,leaf margin,systemic leaves
GGAAACCGAACGGGC,0.288,0.121,0.00668,0
GGAAACCGAAGGAGC,0.256,0.0742,0.0121,0
GGAAACCGAAUGGUC,0.240,0.0922,0.0316,0.0107
GGAAACCGACAAAUC,0.224,0.312,0.0872,0.0215
GGAAACCGACAUAUC,0.256,0.291,0.138,0.0322
GGAAACCGACCCACC,0.176,0.106,0.0175,0
GGAAACCGACCUAGC,0.240,0.0813,0.0134,0
GGAAACCGACGGCGC,0.176,0.0758,0.0108,0
GGAAACCGACUCUGC,0.144,0.0945,0.0134,0.00760
GGAAACCGACUUAGC,0.208,0.0749,0.0128,0
GGAAACCGAGACUCC,0.240,0.137,0.00668,0.00504
GGAAACCGAGCCUGC,0.240,0.121,0.0134,0.00537
GGAAACCGAGGACCC,0.256,0.0760,0.00668,0
GGAAACCGAGGGCUC,0.384,0.0851,0.0108,0
GGAAACCGAUCCGAC,0.192,0.0778,0.0141,0.00537
GGAAACCGAUCGAAC,0.256,0.311,0.120,0.0417
GGAAACCGAUCGCGC,0.288,0.0526,0.0215,0
GGAAACCGAUGCCGC,0.224,0.0487,0.00742,0
GGAAACCGAUGCUUC,0.288,0.103,0.0108,0
GGAAACCGAUUGAAC,0.176,0.308,0.163,0.00537
GGAAACCGAUUUCGC,0.224,0.106,0.00539,0.00537
GGAAACCGCAAGAAC,0.208,0.278,0.115,0.0461
GGAAACCGCACGAAC,0.176,0.401,0.116,0.0107
GGAAACCGCAGAAAC,0.208,0.107,0,0
GGAAACCGCAUUUAC,0.208,0.123,0.00539,0
GGAAACCGCCAUGAC,0.176,0.107,0.00742,0
GGAAACCGCGCAGGC,0.352,0.0876,0.0108,0
GGAAACCGCGCUCGC,0.288,0.0892,0.0236,0
GGAAACCGCGGAAGC,0.0960,0.0922,0.00742,0
GGAAACCGCGUAGUC,0.208,0.247,0.0134,0
GGAAACCGCGUUUGC,0.160,0.121,0.00668,0.00537
GGAAACCGCUACAUC,0.192,0.0909,0.0228,0.00537
GGAAACCGCUAUGGC,0.144,0.117,0.0108,0
GGAAACCGGAGCGGC,0.304,0.0806,0.00668,0
GGAAACCGGAGCGUC,0.256,0.0846,0,0
GGAAACCGGAGUGGC,0.192,0.116,0.00742,0
GGAAACCGGAUAGGC,0.192,0.0868,0.00539,0
GGAAACCGGAUCACC,0.0960,0.0495,0,0
GGAAACCGGCACAUC,0.128,0.119,0,0
GGAAACCGGCCACAC,0.192,0.0930,0.0141,0
GGAAACCGGCCACCC,0.320,0.0560,0.00742,0
GGAAACCGGCCGCUC,0.256,0.0785,0,0.00537
GGAAACCGGCGGGGC,0.304,0.102,0.0175,0.00537
GGAAACCGGCUGUAC,0.320,0.298,0.160,0.0635
GGAAACCGGGACUGC,0.192,0.0785,0.00742,0
GGAAACCGGGCAUGC,0.208,0.0986,0,0.00537
GGAAACCGGGCCGGC,0.240,0.0751,0,0.00537
GGAAACCGGGUCCGC,0.304,0.0837,0.0200,0
GGAAACCGGGUCUUC,0.160,0.0995,0.00539,0.0107
GGAAACCGGUAAACC,0.224,0.0867,0.00668,0
GGAAACCGGUUACUC,0.224,0.0663,0.00539,0
GGAAACCGUAACGCC,0.224,0.0993,0.0195,0
GGAAACCGUACCCGC,0.128,0.0549,0.0187,0
GGAAACCGUACCUGC,0.208,0.0813,0.0121,0
GGAAACCGUACGUCC,0.240,0.425,0.137,0.0335
GGAAACCGUACUUAC,0.240,0.432,0.102,0.0436
GGAAACCGUAGUGAC,0.176,0.0807,0.0134,0
GGAAACCGUAUCCGC,0.192,0.201,0.0195,0
GGAAACCGUAUCUUC,0.208,0.0867,0.00539,0
GGAAACCGUCAAACC,0.320,0.153,0,0
GGAAACCGUCCUGUC,0.272,0.0957,0.0121,0
GGAAACCGUCUGCCC,0.352,0.0733,0.0289,0
GGAAACCGUGAUGUC,0.336,0.217,0.00668,0.00537
GGAAACCGUGCAGUC,0.256,0.110,0.0328,0
GGAAACCGUGCGCAC,0.176,0.0974,0,0
GGAAACCGUGCUUUC,0.240,0.222,0.111,0.0268
GGAAACCGUGGCAGC,0.240,0.115,0.00668,0
GGAAACCGUGGUUUC,0.192,0.0891,0.00539,0
GGAAACCGUGUCUCC,0.208,0.0785,0.00742,0
GGAAACCGUUAUCAC,0.272,0.337,0.0986,0.0631
GGAAACCGUUGAGCC,0.208,0.0668,0.0134,0.0107
GGAAACCGUUGCGGC,0.240,0.0495,0.00742,0
GGAAACCGUUGCUGC,0.224,0.131,0.0141,0
GGAAACCGUUUGAAC,0.144,0.327,0.0973,0.0944

The authors trace changes outside the varied positions to PCR and sequencing errors or to mutation in the plant; presence does not show that a variant is infectious alone.
With 43,870-66,106 reads a sample, very low values are single reads.
Wild type was 33.9 per thousand in the pool and the most common sequence in every sample (inoculated region 202, 200, 159; leaf margin 724, 746, 710; systemic leaves 856, 883, 880).

From the data files of Wu et al. 2024, doi:10.1371/journal.ppat.1012142.